PubChem BioAssay AID1259414 – Drosophila RNAi Screening Center – 2018
Test: 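Host factors increasing or decreasing Wolbachia levels in cultured fly cells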 (primary screen). Cells: Drosophila JW18 cells infected with Wolbachia. Reagents: long dsRNA against Drosophila genes, 0.25 µg dsRNA per well of a 384-well plate. Timing: 5 days. Conditions: cells persistently infected with Wolbachia before knock-down; no added drug. Read-out: 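Automated imaging of bacterial rRNA staining divided by host cell count, reported as plate-normalised robust z-score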. Direction: Wolbachia per cell robust z: higher = more Wolbachia per host cell than the plate typical. Active means: 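Hit when robust z is 1.5 or more, or -1.5 or less, in at least two of three replicates; excludes dsRNAs with several or no targets, genes not expressed in JW18 and well A1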.
In all, the deposit lists about 24,000 reagents; this is a random part of those with a known target gene and a result. In the full data, about 1,210 (5%) were called active. 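Inactive calls also include excluded dsRNAs with several or no targets, genes unexpressed in JW18, and well A1, regardless of score.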 Entries without a mark were called inactive. A plus sign joins genes that one reagent is predicted to hit.

| Target gene | dsRNA | Wolbachia per cell robust z, rep 1 | Wolbachia per cell robust z, rep 2 | Wolbachia per cell robust z, rep 3 |
| --- | --- | --- | --- | --- |
| CG14298 | DRSC14777 | 0.195 | 1.16 | -0.846 |
| Lint-1 (l(3)mbt interacting protein 1) | DRSC19822 | -4.19 | -1.21 | -0.551 |
| Lint-1 (l(3)mbt interacting protein 1) | DRSC28176 | -0.875 | -1.64 | -0.913 |
| CG31259 | DRSC14366 | -0.542 | 0.479 | 0.331 |
| CG2533 | DRSC19855 | -2.64 | -2.24 | -3.22 |
| CG2533 | DRSC28777 | 0.307 | 0.427 | -1.25 |
| IntS1 (Integrator 1) | DRSC04343 | -7.15 (active) | 0.894 | -4.36 |
| IntS1 (Integrator 1) | DRSC27942 | -1.55 | 0.729 | -0.129 |
| CG8654 | DRSC07231 | 1.39 | 0.619 | 0.954 |
| CG33278 | DRSC10336 | -0.997 | -2.8 | -0.208 |
| CG33278 | DRSC26564 | 1.25 | -0.841 | -0.068 |
| Rdh (Red herring) | DRSC08063 | 0.427 | 4.66 | 1.95 |
| CG32198 | DRSC09553 | -1.24 | -1.73 | -0.899 |
| CG32198 | DRSC27630 | -7.01 | 0.728 | -1.36 |
| CG1288 | DRSC12538 | -0.196 | 0.38 | -0.0567 |
| CG1288 | DRSC25396 | 1.2 | 0.182 | 1.14 |
| Mt2 (Methyltransferase 2) | DRSC03374 | 1.34 | 0.306 | 0.329 |
| CG12128 | DRSC06104 | -0.658 | -0.709 | -0.433 |
| CG12128 | DRSC29958 | -0.448 | -1.27 | -5.78 |
| Edc3 (Enhancer of decapping 3) | DRSC10620 | 0.013 | -1.39 | -1.91 |
| Edc3 (Enhancer of decapping 3) | DRSC23994 | -1.46 | -0.539 | -1.63 |

Limited to “Wolbachia per cell robust z, rep 2” (4 entries from above):
CG1288 [DRSC12538] = 0.38
CG1288 [DRSC25396] = 0.182
Mt2 (Methyltransferase 2) [DRSC03374] = 0.306
CG12128 [DRSC06104] = -0.709

More results follow.
| Target gene | dsRNA | Wolbachia per cell robust z, rep 1 | Wolbachia per cell robust z, rep 2 | Wolbachia per cell robust z, rep 3 |
| --- | --- | --- | --- | --- |
| dpr18 (defective proboscis extension response 18) | DRSC19606 | 0.71 | 0.455 | 0.32 |
| CG3760 | DRSC04415 | 0.534 | 0.791 | -1.06 |
| SoYb | DRSC02901 | 0.434 | 0.776 | 0.516 |
| mRpL21 (mitochondrial ribosomal protein L21) | DRSC11100 | 0.439 | -0.679 | -7.63 |
| CG13314 | DRSC09985 | -0.453 | -1.09 | 0.673 |
| CG10761 | DRSC17753 | 0.111 | 0.495 | -0.661 |
| CG10761 | DRSC27665 | 0.259 | -1.88 | -0.135 |
| CG11050 | DRSC02125 | -0.395 | 0.16 | -0.143 |
| CG11050 | DRSC23562 | -0.911 (active) | -7.81 | -1.66 |
| CG30058 + CG34235 + CG34312 | DRSC38871 | -0.466 | 0.215 | 0.548 |
| CG18749 + CG33722 | DRSC15386 | 0.025 | -0.0307 | 0.117 |
| CG8545 | DRSC07210 | 0.244 | 0.972 | -0.415 |
| CG13559 | DRSC04197 | -0.203 | 0.0403 | 0.874 |
| Targ1 (Terminal ADP-ribose protein glycohydrolase 1) | DRSC11616 | 0.422 | 1.86 | -0.644 |
| Targ1 (Terminal ADP-ribose protein glycohydrolase 1) | DRSC41485 | 0.513 | -0.439 | -1.41 |
| DIP-lambda (Dpr-interacting protein lambda) | DRSC22174 | 1.11 | 0.53 | 1.16 |
| snRNA:U1:95Cb + snRNA:U1:95Cc | DRSC13641 | -0.644 | 0.162 | -5.51 |
| CG15642 | DRSC19678 | 0.779 | 1.01 | -4.89 |
| CG15642 | DRSC29032 | 1.27 | 0.774 | 0.98 |
| fat-spondin | DRSC07617 | 0.152 | -0.804 | -7.63 |
| stwl (stonewall) | DRSC11400 | -0.671 | 0.57 | 2.06 |
| stwl (stonewall) | DRSC23913 | 1.15 | -0.507 | 0.485 |
| cdm (cadmus) | DRSC16213 | -4.18 | -0.889 | 0.066 |
| slmb (supernumerary limbs) | DRSC17056 | 6.56 | 4.68 | 5.5 |
| slmb (supernumerary limbs) | DRSC40762 | 1.03 | 0.527 | -0.097 |
